Compound potency records, mixed from different reports. Data source: NIAID ChemDB in PubChem.

Common to all: tests in culture; species: Mycobacterium tuberculosis

Conditions beyond the fields shown may differ between rows. ECn is the concentration giving n% inhibition of infection, replication or growth. A number after MIC or MFC names an inhibition level or a share of isolates. MIC bound comes from a single tested concentration. An empty or dashed field is not shown. Percent inhibition refers to the dose given; in toxicity tests it is the harm to the cells. For "inactive" no cut-off is given.

smiles,strain or isolate,changes,method,setting,measure,dose,value
Cc1ccc(-n2c(=O)oc3ccccc3c2=O)cc1,H37Rv,-,-,-,MIC,-,111 µM
CCCC/C=C/CNNC(=O)c1ccncc1,BCG,-,-,-,MIC,-,0.03 µg/mL
CCCc1ccc2oc(-c3ccc(O)c(OC)c3)c(C)c2c1,Clinical isolate 73-A,isoniazid rifampicin pyrazinamide resistant,resazurin / absorbance,-,MIC,-,3.9 µg/mL
C(=N\Nc1ccncc1)/c1ccc2ccccc2n1,H37Rv,-,BACTEC,-,MIC bound,-,≤12.5 µg/mL
C(=C\c1ccccc1)/CNc1ccc(Cn2ccnc2)cc1,B905,-,-,-,MIC,-,16 µg/mL
COc1ccc(C2CC(=Nc3cccc(Cl)c3)C(=O)N2c2cccc(Cl)c2)cc1,H37Rv,-,BACTEC,-,inhibition,12.8 µg/mL,-31%
CN1CCN(Cc2ccc(NC/C=C/c3ccccc3)cc2)CC1,6431,-,-,-,MIC,-,>64 µg/mL
NNC(=O)C(c1ccccc1)c1ccccc1,BCG,-,-,-,MIC,-,100 µg/mL
CCCCc1c(O)c(-c2ccccc2)c2n(c1=O)CCC2,H37Ra,-,-,-,MIC,-,128 µg/mL
O=C(Nc1ccc([N+](=O)[O-])c2c1C(=O)c1ccccc1C2=O)c1ccccc1,H37Rv,-,BACTEC,-,inhibition,12.5 µg/mL,-33%
S=c1[nH]nc(Cc2cccs2)n1/N=C\c1ccc2c(c1)OCO2,H37Rv (ATCC 27294),-,-,-,inhibition,6.25 µg/mL,57%
COc1ccc(-n2c(=O)oc3ccccc3c2=O)cc1,H37Rv,-,-,-,MIC,-,111 µM
O=C(/C=C/c1ccccc1)n1c(-c2ccccc2)nc2ccccc21,H37Rv,-,resazurin / visual reading,-,MIC100,-,6.25 µg/mL
CC1OC(n2ccc(NC(=O)c3ccc(NC(=O)C(C)(N)CO)cc3)nc2=O)CCC1OC1OC(C)C(N(C)C)C(O)C1O,RMP-R,-,-,-,MIC,-,0.8 µg/mL
Cc1nc2ccc([N+](=O)[O-])cc2n1C(=O)/C=C/c1ccccc1,H37Rv,-,resazurin / visual reading,-,MIC100,-,25 µg/mL
CO[C@H]1C[C@@H]2\C=C(C)/C=C/C=C\C(=O)N[C@H](c3ccccc3)C/C=C/CC[C@H](O)CC(=O)C2=C1O,RMP-R,-,-,-,MIC,-,3.1 µg/mL
O=c1oc2ccccc2c(=O)n1-c1ccc(Cl)cc1,H37Rv,-,-,-,MIC,-,37 µM
O=c1[nH]c2ccc(C(F)(F)F)cc2nc1C(F)(F)F,-,-,-,-,EC50,-,>12.5 µg/mL
C/C=C/c1ccc2c(c1)[C@@H](C)[C@H](c1ccc(OC)cc1)O2,Clinical isolate 13 638,-,resazurin / absorbance,-,MIC,-,7.8 µg/mL
O=c1cc(O)cc2n1CCC2,H37Ra,-,-,-,MIC,-,>256 µg/mL
C(=C\c1ccccc1)/CNc1ccc(CN2CCOCC2)cc1,6425,-,-,-,MIC,-,32 µg/mL
O=C(/C=C/c1ccccc1)n1c(CCl)nc2ccccc21,H37Rv,-,resazurin / visual reading,-,MIC100,-,25 µg/mL
COc1ccc(/C=N\n2c(Cc3cccs3)n[nH]c2=S)cc1OCc1ccccc1,H37Rv (ATCC 27294),-,-,-,inhibition,6.25 µg/mL,63%
OCCN1CCN(CCO)CC1,H37Rv,-,BACTEC,-,inhibition,12.8 µg/mL,-9%
CC1=C(C(=O)Nc2ccc(F)c(Cl)c2)C(c2ccccc2)C(C(=O)Nc2ccc(F)c(Cl)c2)=C(C)N1,H37Rv,-,-,-,MIC,-,>6.25 µg/mL
CC(=O)c1c(O)c(C)c(O)c2c1OC1=CC(=O)C(C(C)=O)C(=O)[C@@]12C,H37Rv,-,BACTEC,-,MIC bound,-,≤128 µg/mL
CC(=O)O[C@@H]1OC(=O)C2=CC[C@H]3[C@]4(C)CC[C@H]5C(C)(C)CCC[C@]5(C)[C@H]4CC[C@]3(C)[C@H]21,-,-,-,-,MIC,-,4 µg/mL
NCC[C@H](O)C(=O)N[C@@H]1C[C@H](N)[C@@H](O[C@H]2O[C@H](CN)[C@@H](O)[C@H](O)[C@H]2O)[C@H](O)[C@H]1O[C@H]1O[C@H](CO)[C@@H](O)[C@H](N)[C@H]1O,Isolate CKN64-301 (rrs A1401G mutation),-,-,-,MIC,-,>64 µg/mL
C=C1C[C@@]23CC[C@H]4[C@@](C)(CCC[C@@]4(C)C(=O)O)[C@@H]2CC[C@H]1C3,-,-,resazurin,-,MIC,-,125 µg/mL
CO[C@@]12[C@H](COC(N)=O)C3=C(C(=O)C(C)=C(NCC4CCCO4)C3=O)N1C[C@@H]1N[C@@H]12,H37Rv,-,BACTEC,-,inhibition,12.5 µg/mL,99%
CC(C)COc1ccc(NC(=S)Nc2ccc(-c3ccccn3)cc2)cc1,H37RV (PAS-R),-,-,-,MIC,-,>50 µg/mL
COc1ccc(C2CC(c3ccccc3)=NN2C(=O)c2ccc(O)cc2)cc1,H37Ra,-,visual reading,-,MBC,-,>535 µM
C[N+](C)(C)CC(=O)N/N=C/c1ccco1,H37Rv,-,BACTEC,-,inhibition,12.5 µg/mL,-17%
Cc1ccc(C2CC(c3ccccc3)=NN2C(=O)c2ccc(O)cc2)cc1,H37Ra,-,visual reading,-,MBC,-,562 µM
Cc1nn2c(=O)[nH]cnc2c1Cl,H37Rv,-,resazurin,-,inhibition,6.25 µg/mL,10%
CO[C@H]1/C=C/O[C@@]2(C)Oc3c(C)c(O)c4c(O)c(c5c(c4c3C2=O)NC2(CCN(CC(C)C)CC2)N=5)=NC(=O)/C(C)=C\C=C\[C@H](C)[C@H](O)[C@@H](C)[C@@H](O)[C@@H](C)[C@H](OC(C)=O)[C@@H]1C,2257 (rifampicin-susceptible),-,-,-,MIC,-,0.062 µg/mL
C/C(=C\C(=O)O)CC[C@@H]1[C@@]2(CC[C@@H]3C(C)(C)CCC[C@]31C)CO2,-,-,resazurin,-,MIC,-,25 µg/mL
N#Cc1ccc(/C=N\n2c(Cc3cccs3)n[nH]c2=S)cc1,H37Rv (ATCC 27294),-,-,-,inhibition,6.25 µg/mL,58%
O=c1oc2ccccc2c(=O)n1-c1ccc(Br)cc1,H37Rv,-,-,-,MIC,-,37 µM
CC1=C(C(=O)Nc2ccc(C)cc2C)C(c2ccc(O)cc2)C(C(=O)Nc2ccc(C)cc2C)=C(C)N1,H37Rv,-,-,-,MIC,-,>12.5 µg/mL
Cc1c(OCC(F)(F)F)ccnc1CSc1nc2ccccc2[nH]1,H37Rv,-,resazurin,-,MIC90,-,1.13 µM
NNC(=O)CCCCC(=O)NN,-,-,-,-,EC50,-,<0.125 µg/mL
Cc1ccc(S(=O)(=O)N/N=C2\COC(C)C2)cc1,H37Rv,-,BACTEC,-,inhibition,12.5 µg/mL,-1%
O=C(/C=C/c1ccccc1)n1c(-c2ccccc2Cl)nc2ccccc21,H37Rv,-,resazurin / visual reading,-,MIC100,-,50 µg/mL
S=C(Nc1ccccc1)N1N=C(c2ccccc2)CC1c1ccc(Cl)cc1Cl,H37Ra,-,visual reading,-,MBC,-,>471 µM
O=C1CSC(c2ccccc2Cl)N1c1nncs1,H37Rv,-,BACTEC,-,MIC bound,-,>12.5 µg/mL
NNC(=O)Cc1c[nH]c2ccccc12,BCG,-,-,-,MIC,-,60 µg/mL
O=C(O)c1c(O)c(-c2ccccc2)c(=O)n2c1CCC2,H37Ra,-,-,-,MIC,-,>256 µg/mL
COc1ccc2c(c1)c(CC(=O)NN)c(C)n2C(=O)c1ccc(Cl)cc1,-,-,-,-,EC50,-,<0.125 µg/mL
O=c1oc2ccccc2c(=O)n1-c1ccc(Cl)c(Cl)c1,H37Rv,-,-,-,MIC,-,12.3 µM
CC(=O)CC[C@@H]1C(=O)CC[C@@H]2C(C)(C)CCC[C@@]12C,-,-,resazurin,-,MIC,-,12.5 µg/mL
O=C(/C=C/c1ccccc1)n1c(-c2ccc(O)cc2)nc2ccccc21,H37Rv,-,resazurin / visual reading,-,MIC100,-,12.5 µg/mL
Cc1nc(NN)c(C(N)=O)nc1C,H37Rv,-,BACTEC,-,inhibition,12.5 µg/mL,-5%
COc1ccc(-c2nc3ccccc3n2C(=O)/C=C/c2ccccc2)cc1,H37Rv,-,resazurin / visual reading,-,MIC100,-,3.12 µg/mL
O=c1[nH]c2cc(C(F)(F)F)ccc2nc1CBr,-,-,-,-,EC50,-,>12.5 µg/mL
CC[C@@]1(O)C(=O)OCc2c1cc1n(c2=O)Cc2cc3cc(O)ccc3nc2-1,H37Rv,-,resazurin,-,MIC bound,-,>6.25 µg/mL
O=c1[nH]c2ccc(C(F)(F)F)cc2nc1CBr,-,-,-,-,inhibition,12.5 µg/mL,inactive
Cc1ccc(C2CC(c3ccccc3)=NN2C(=S)Nc2ccccc2)cc1,H37Ra,-,MTT,-,MIC,-,17 µM
NC(=S)NCc1ccccc1,A67,-,-,-,MIC,-,250 µM
COP(=O)(/C=C/c1cc(C(=O)OCc2ccccc2)n(S(=O)(=O)c2ccccc2)c1)OC,H37Rv,-,BACTEC,-,MIC bound,-,>12.5 µg/mL
O=c1c(Cc2ccccc2)c(O)c(-c2ccccc2)c2n1CCC2,H37Ra,-,-,-,MIC,-,128 µg/mL
C(=C\c1ccccc1)/CNc1ccccc1Cn1ccnc1,B814,-,-,-,MIC,-,2 µg/mL
NC(=S)Nc1ccccc1N,A67,-,-,-,MIC,-,7.81 µM
COc1ccc(C2CC(c3ccccc3)=NN2C(=S)Nc2ccccc2)cc1,H37Ra,-,MTT,-,MIC,-,>517 µM
COc1ccccc1NC(N)=S,A67,-,-,-,MIC,-,250 µM
Nc1nc2nc3c(nc2c(=O)[nH]1)CN(C1CCCCC1)C3=O,H37Rv,-,BACTEC,-,MIC bound,-,>12.8 µg/mL
C(=C\c1ccccc1)/CNc1cccc(Cn2ccnc2)c1,6431,-,-,-,MIC,-,8 µg/mL
CCCCc1c(O)cc2n(c1=O)CCC2,H37Ra,-,-,-,MIC,-,256 µg/mL
C/C(=N/N=C(N)N)c1ccc(N2CCN(c3ccc(/C(C)=N/N=C(N)N)cc3)CC2)cc1,H37Rv,-,BACTEC,-,inhibition,12.5 µg/mL,68.27%
CC1=C(C(=O)Nc2ccc(F)c(Cl)c2)C(c2cccc(Br)c2)C(C(=O)Nc2ccc(F)c(Cl)c2)=C(C)N1,H37Rv,-,-,-,MIC,-,>6.25 µg/mL
NC1CCN(c2c(F)cc3c(=O)c(C(=O)O)cn(C4CC4)c3c2Cl)C1,20 strains,-,-,-,MIC50,-,0.5 µg/mL
O=C(/C=C/c1ccccc1)n1c(-c2ccccc2[N+](=O)[O-])nc2ccccc21,H37Rv,-,resazurin / visual reading,-,MIC100,-,12.5 µg/mL
CN1CCN(Cc2ccccc2NC/C=C/c2ccccc2)CC1,B814,-,-,-,MIC,-,32 µg/mL
S=c1[nH]nc(Cc2cccs2)n1/N=C\c1ccc(Cl)cc1,H37Rv (ATCC 27294),-,-,-,inhibition,6.25 µg/mL,54%
CO[C@H]1/C=C/O[C@@]2(C)Oc3c(C)c(O)c4c(=O)c(c5oc6cc(N7CCN(CC(C)C)CC7)cc(=O)c6nc5c4c3=C2O)NC(=O)/C(C)=C\C=C\[C@H](C)[C@H](O)[C@@H](C)[C@@H](O)[C@@H](C)[C@H](OC(C)=O)[C@@H]1C,H37Rv,-,-,inside macrophages,inhibition,10 µg/mL,98.8%
CC1=C(C(=O)Nc2cc(C)ccc2C)C(c2ccc(Cl)cc2)C(C(=O)Nc2cc(C)ccc2C)=C(C)N1,H37Rv,-,-,-,MIC,-,>6.25 µg/mL
C=C(CC[C@@H](C)[C@H]1CC[C@@H]2[C@H]3CC=C4C[C@@H](O)CC[C@]4(CO)[C@@H]3CC[C@@]21C)C(C)C,-,-,-,-,MIC,-,3.13 µg/mL
ClC1=CC(=N/Br)/C=CC/1=N\Br,H37Rv,-,BACTEC,-,MIC bound,-,>12.5 µg/mL
NNC(=O)C[n+]1csc(N)n1,BCG,-,-,-,MIC,-,300 µg/mL
O=C1N(Cl)C2C(N1Cl)N(Cl)C(=O)N2Cl,-,-,resazurin,-,MIC bound,-,>6.25 µg/mL
CC(C)=CCC[C@H](C)[C@H]1CC[C@H](C)c2ccccc21,-,-,-,-,MIC,-,12.5 µg/mL
S=C(S)N1CCCCC1,EMB-R,-,-,-,MIC,-,0.8 µg/mL
COC(=O)C1=C(C)N(c2ccc(Cl)cc2)C(C)=C(C(=O)OC)C1c1cccc([N+](=O)[O-])c1,H37Rv,-,-,-,MIC,-,>6.25 µg/mL
Cc1ccccc1NC(N)=S,A67,-,-,-,MIC,-,125 µM
C/C=C/c1ccc2oc(-c3ccc(O)c(OC)c3)c(C)c2c1,Clinical isolate 57,-,resazurin / absorbance,-,MIC,-,7.8 µg/mL
Cc1ccc(/C=N\n2c(Cc3cccs3)n[nH]c2=S)cc1,H37Rv (ATCC 27294),-,-,-,inhibition,6.25 µg/mL,49%
O=C(/C=C/c1ccccc1)n1c(-c2ccc([N+](=O)[O-])cc2)nc2ccccc21,H37Rv,-,resazurin / visual reading,-,MIC100,-,50 µg/mL

For reference, 8 entries again:

smiles,strain or isolate,changes,method,setting,measure,dose,value
OCCN1CCN(CCO)CC1,H37Rv,-,BACTEC,-,inhibition,12.8 µg/mL,-9%
N#Cc1ccc(/C=N\n2c(Cc3cccs3)n[nH]c2=S)cc1,H37Rv (ATCC 27294),-,-,-,inhibition,6.25 µg/mL,58%
COc1ccc(C2CC(c3ccccc3)=NN2C(=O)c2ccc(O)cc2)cc1,H37Ra,-,visual reading,-,MBC,-,>535 µM
CC1=C(C(=O)Nc2ccc(F)c(Cl)c2)C(c2cccc(Br)c2)C(C(=O)Nc2ccc(F)c(Cl)c2)=C(C)N1,H37Rv,-,-,-,MIC,-,>6.25 µg/mL
NNC(=O)CCCCC(=O)NN,-,-,-,-,EC50,-,<0.125 µg/mL
CN1CCN(Cc2ccccc2NC/C=C/c2ccccc2)CC1,B814,-,-,-,MIC,-,32 µg/mL
CCCc1ccc2oc(-c3ccc(O)c(OC)c3)c(C)c2c1,Clinical isolate 73-A,isoniazid rifampicin pyrazinamide resistant,resazurin / absorbance,-,MIC,-,3.9 µg/mL
S=c1[nH]nc(Cc2cccs2)n1/N=C\c1ccc2c(c1)OCO2,H37Rv (ATCC 27294),-,-,-,inhibition,6.25 µg/mL,57%